Results of unrelated studies side by side (data: NIAID ChemDB).

All rows: whole-cell or culture tests; organism: Hepatitis C virus; measure: EC50

a–b is a range or a potency band.

compound,mutations,strain or isolate,cells,setting,method,result
CNC(=O)c1c(-c2ccc(F)cc2)oc2cc(N3CCSCC3)c(OC(C)C)cc12,,,Huh7,,replicon,<1 µM
COc1ccc(-c2nc(NC(=O)[C@H](C)c3ccc(Cl)cc3)[nH]c2C)cc1S(=O)(=O)CCO,,1a,Huh7,,luciferase,1.68 µM
CCCCOC(=O)[C@H](C)NP(=O)(/C=C/[C@@]1(N=[N+]=[N-])O[C@@H](n2cnc3c(N)ncnc32)[C@H](O)[C@@H]1O)N[C@@H](C)C(=O)OCCCC,,,,,replicon,>100 µM
Cc1[nH]c(NC(=O)C(C)c2ccccc2)nc1-c1ccc(C(=O)O)c(S(C)(=O)=O)c1,,1b,Huh7,,luciferase,>10 µM
CNC(=O)c1c(-c2ccc(F)cc2)oc2cc(N3CCS(=O)CC3)c(OC(C)C)cc12,,,Huh7,,replicon,<10 µM
Nc1ncnc2ccc(-c3ccc(F)cc3)cc12,,,Huh7,,,1–10 µM
CC1=CN(c2ccc([N+](=O)[O-])cc2)[C@@H](c2ccc(C(F)(F)F)cc2)[C@@H](C)C1=O,,1b,Huh7,,replicon,23.2 µM
CNC(=O)c1c(-c2ccc(F)cc2)oc2cc(N3CCOCC3)c(OCC(C)(C)O)cc12,,,Huh7,,replicon,<10 µM
CNc1ncnc2c1ncn2[C@@H]1O[C@H](CO)[C@](O)(CN=[N+]=[N-])[C@H]1O,,genotype 1,Huh 5-2,,luciferase,>100 µM
CC(=O)Nc1ccc(-c2ccc3nc(N)nc(N4CCN(C(C)=O)CC4)c3c2)cc1,,,Huh7,,,1–10 µM
CNC(=O)c1c(-c2ccc(F)cc2)oc2cc(-c3cc(CO)on3)c(OC)cc12,,,Huh7,,replicon,<1 µM
Cc1ccc(S(=O)(=O)/N=C2\NC(=O)/C(=C/c3cccnc3)S2)cc1,,1b,Huh 5-2,,luciferase,16.63 µM
COc1cc(C(=O)N2[C@@H](c3ncc(C)s3)[C@@H](c3cnccn3)C[C@@]2(Cc2nccs2)C(=O)O)ccc1C(C)(C)C,,genotype 1b,Huh7,,replicon,<0.1 µM
CCCCOC(=O)[C@H](C)NP(=O)(/C=C/[C@H]1O[C@@H](n2cnc3c(N)ncnc32)[C@@H](F)[C@@H]1O)N[C@@H](C)C(=O)OCCCC,,,,,replicon,<10 µM
CNC(=O)c1c(-c2ccc(F)cc2)oc2cc(S(=O)(=O)N3CCSCC3)c(OC(C)C)cc12,,,Huh7,,replicon,<1 µM
COc1ccc(-c2nc(NC(=O)[C@@H](C)c3ccc(Cl)cc3)[nH]c2C)cc1S(=O)(=O)CCO,,JFH-1,Huh7,,luciferase,0.184 µM
COc1cc(C(=O)N2[C@@H](c3ncc(C)s3)[C@@H](c3cnccn3)C[C@@]2(Cn2cccn2)C(=O)O)ccc1C(C)(C)C,,Genotype 1A,Huh7,,replicon,<10 µM
CC(C)N(C(=O)c1ccc(Cl)cc1F)c1cc(-c2ccc(-c3cc4ncccn4n3)cc2)sc1C(=O)O,,1b,,,replicon / ELISA,0.01–0.05 µM
Nc1nc(Nc2ccccc2)c2cc(-c3ccc(F)cc3)ccc2n1,,,Huh7,,,0.3–1 µM
CCc1cc2c(cc1F)c(C#N)c(-c1ccc(S(=O)(=O)N[C@@H](C)C(F)(F)F)cn1)n2-c1ncccn1,,1b,,,PCR,0.0017 µM
Cc1ccc(S(=O)(=O)/N=C2\NC(=O)/C(=C/c3ccc(-c4ccccc4)cc3)S2)cc1,,1b,Huh 5-2,,luciferase,58.75 µM
C[C@H]1COB(O)C1NC(=O)[C@@H]1C[C@@H]2CN1C(=O)[C@H](C(C)(C)C)NC(=O)OCC(C)(C)CCCCc1cccc3c1CN(C3)C(=O)O2,,,,genotype 1a,replicon,1.9 µM
Nc1ccn([C@@H]2O[C@H](/C=C/P(=O)(O)O)C[C@H]2O)c(=O)n1,,,,,replicon,>100 µM
CN(C)c1ncnc2ccc(-c3ccc(F)cc3)cc12,,,Huh7,,,1–10 µM
O=C1N/C(=N\S(=O)(=O)c2ccc(F)cc2)S/C1=C\c1ccccc1Cl,,1b,Huh 5-2,,luciferase,>115 µM
COc1nc(N)nc2c1ncn2[C@@H]1O[C@H](COP(=O)(N[C@@H](C)C(=O)OCC(C)(C)C)Oc2cccc3ccccc23)[C@@H](O)[C@@]1(C)O,,1b,Huh7,24 h,luciferase,0.035 µM
COc1cc(C(=O)N2[C@@H](c3nccs3)[C@@H](c3cnccn3)C[C@@]2(Cc2cnc[nH]2)C(=O)O)ccc1C(C)(C)C,,genotype 1b,Huh7,,replicon,0.1–10 µM
CNC(=O)c1c(-c2ccc(F)cc2)oc2cc(N(C)S(C)(=O)=O)c(OCCn3cccn3)cc12,,,Huh7,,replicon,<1 µM
COc1cc(C(=O)N2[C@@H](c3nccs3)[C@@H](c3cnccn3)C[C@@]2(Cc2cscn2)C(=O)O)ccc1C(C)(C)C,,genotype 1b,Huh7,,replicon,<0.1 µM
CC(C)N(C(=O)c1ccc(Cl)cc1Cl)c1cc(-c2ccc(-c3cc4ncccn4n3)cc2)sc1C(=O)O,,1b,,,replicon / ELISA,0.01–0.05 µM
COc1cc(C(=O)N2[C@@H](c3nccs3)[C@@H](c3cnccn3)C[C@@]2(Cc2nccs2)C(=O)O)ccc1C(C)(C)C,,Genotype 1A,Huh7,,replicon,<10 µM
CC(C)N(C(=O)c1ccc(Cl)cc1Cl)c1cc(-c2ccc(-c3cc4nccc(N)n4n3)cc2)sc1C(=O)O,,1a,,,replicon / ELISA,0.01–0.05 µM
CNC(=O)c1c(-c2ccccc2)oc2ccc(C)cc12,,,Huh7,,replicon,<10 µM
Nc1nc2c(ncn2[C@@H]2O[C@H](/C=C/P(=O)(O)O)[C@@H](O)[C@H]2O)c(=O)[nH]1,,,,,replicon,10–100 µM
[N-]=[N+]=NC[C@@]1(O)[C@@H](CO)O[C@@H](n2cnc3c(N)ncnc32)[C@@H]1O,,genotype 1,Huh 5-2,,luciferase,11.8 µM
CB1OCCC1NC(=O)[C@@H]1C[C@@H]2CN1C(=O)[C@H](C(C)(C)C)NC(=O)OCC(C)(C)CCCCc1cccc3c1CN(C3)C(=O)O2,,,,genotype 1a,replicon,11 µM
CCCCOC(=O)[C@H](C)NP(=O)(/C=C/[C@@]1(N=[N+]=[N-])O[C@@H](n2ccc(=O)[nH]c2=O)[C@H](O)[C@@H]1O)N[C@@H](C)C(=O)OCCCC,,,,,replicon,10–100 µM
COCC(C)N(C(=O)c1ccc(Cl)cc1Cl)c1cc(-c2ccccc2)sc1C(=O)O,,1b,,,luciferase / replicon,1–5 µM
COc1ccc(-c2ccc3nc(N)nc(N4CCOCC4)c3c2)cc1OC,,,Huh7,,,<0.3 µM
COc1c(-c2ccc3cc(NS(C)(=O)=O)ccc3c2)cc(-n2ccc(=O)[nH]c2=O)cc1C(C)(C)C,N411S,genotype 1b Con1,Huh7,,luciferase,0.05 µM

Again, the opening 2 rows:

CNC(=O)c1c(-c2ccc(F)cc2)oc2cc(N3CCSCC3)c(OC(C)C)cc12 ; cells: Huh7 ; method: replicon ; result: <1 µM
COc1ccc(-c2nc(NC(=O)[C@H](C)c3ccc(Cl)cc3)[nH]c2C)cc1S(=O)(=O)CCO ; strain or isolate: 1a ; cells: Huh7 ; method: luciferase ; result: 1.68 µM

Blank or dashed fields: not listed here. ECn is the concentration giving n% inhibition of infection, replication or growth. Conditions beyond the fields shown may differ between rows.